Source: US7309494B2 (Pierre Fabre Medicament, priority 2001, dated 2007)
Values joined by “and” are separate entries in the source; they are usually repeats but may differ in a detail not shown here. Equal entries are not always repeated.

Test: general procedure: Fmoc solid-phase peptide synthesis; Fmoc-L-Pro resin (G7a); hydroxymethylphenoxymethyl (HMP) resin preloaded with Lys(Boc), 0.70 mmol/g (G20a)
Conditions: oxidative folding step, several disulfide bridges, sequence written open

Substance: MEFQ140TQPSKPTTKQRQNKPPNKPNNDFHFEVFNFVPC173SIC176SNNPT C182WAIC186KRIP190S144KPTTKQRQNKPPNK158
- final HPLC purity (RP-HPLC): >90%
- oxidative folding yield (run 1): 22% and 44%
